Values from PubChem BioAssay AID1259414 (Drosophila RNAi Screening Center, 2018)

Test: 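Genome-wide screen for host control of endosymbiont load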 (primary screen)
Cells: Drosophila JW18 cells infected with Wolbachia
Knock-down reagent: long dsRNA against Drosophila genes, 0.25 µg dsRNA per well of a 384-well plate
Timing: 5 days
Challenge: cells persistently infected with Wolbachia before knock-down; no added drug
Detection: 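Imaged fluorescence in situ signal for Wolbachia 23S rRNA per DAPI-counted host cell, given as a robust z-score within each plate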
Reading the numbers: Wolbachia per cell robust z: higher = more Wolbachia per host cell than the plate typical
Rule for the call: 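Hit when robust z is 1.5 or more, or -1.5 or less, in at least two of three replicates; excludes dsRNAs with several or no targets, genes not expressed in JW18 and well A1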
The screen tested about 24,000 reagents; shown is a random part of those that have a named target and a result. In the full data, about 1,210 (5%) are marked active. 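Inactive calls also include excluded dsRNAs with several or no targets, genes unexpressed in JW18, and well A1, regardless of score.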 Entries without a mark were called inactive. A plus sign joins genes that one reagent is predicted to hit.

gene	dsRNA	Wolbachia per cell robust z, rep 1	Wolbachia per cell robust z, rep 2	Wolbachia per cell robust z, rep 3
Cyp49a1 (GeneID 36105)	DRSC06737	0.137	-5.5	0.0238
Cyp49a1 (GeneID 36105)	DRSC07367	0.0472	-0.254	0.0715
Pif1B + Pif1A	DRSC14380	-6.11	0.293	-0.148
Pif1B + Pif1A	DRSC14381	-2.75	0.271	-5.23
Fmo-2 (GeneID 35561)	DRSC04983	0.236	-0.293	0.447
CG42269 (GeneID 38689)	DRSC10670	0.779	1.38	1.26
CG42269 (GeneID 38689)	DRSC10672	-0.767	-0.558	-0.247
CG42269 (GeneID 38689)	DRSC24477	-0.373	0.488	-8.5
CG42269 (GeneID 38689)	DRSC26685	0.472	0.238	1.87
Trpgamma (GeneID 34991)	DRSC03626	-0.978	-0.746	-6.32
crb (GeneID 42896)	DRSC16927	0.351	0.245	-0.134
crb (GeneID 42896)	DRSC39156	-0.339	1.06	0.0743
E(bx) (GeneID 44811)	DRSC08172	0.659	0.458	-2.35
E(bx) (GeneID 44811)	DRSC08509	2.07	0.685	-0.36
E(bx) (GeneID 44811)	DRSC08583	0.702	1.47	1.32
CG3829 (GeneID 38000)	DRSC04423	-0.184	-0.317	-5.3
Rpt5 (GeneID 42805)	DRSC16842	3.18 (active)	1.86	2.12
Rpt5 (GeneID 42805)	DRSC26269	2.34 (active)	1.99	1.95
Idgf1 (GeneID 34978)	DRSC03349	-0.557	-0.151	-1.33
Idgf1 (GeneID 34978)	DRSC26045	0.814	0.601	1.38
CG2209 (GeneID 32250)	DRSC19843	-1.16	-1.17	0.586
CG31704 (GeneID 318906)	DRSC22118	-0.398	0.484	-0.549
step (GeneID 35425)	DRSC03694	0.108	-0.426	-0.372
step (GeneID 35425)	DRSC03699	0.534	0.174	-0.137
St4 (GeneID 36548)	DRSC07008	0.046	0.752	0.666
pgc + T3dh	DRSC04659	0.16	-0.258	0.295
Set2 (GeneID 32301)	DRSC19765	0.853	-10.3	-0.0388
N (GeneID 31293)	DRSC18685	-1.15	-1.63	-0.879
N (GeneID 31293)	DRSC39108	-1.18	-0.0693	1.4
Atg9 (GeneID 36821)	DRSC06848	-0.973	-0.112	-1.4
Cubn (GeneID 326235)	DRSC18256	0.325	1.16	2.32
Cubn (GeneID 326235)	DRSC29380	1.1	0.271	0.0949
MCU (GeneID 59223)	DRSC10339	0.16	0.115	-5.3
Toll-6 (GeneID 39663)	DRSC11304	-0.23	-0.705	1.21
CG14195 (GeneID 32911)	DRSC19550	-0.693	-1.54	-0.164
CG7366 (GeneID 38918)	DRSC10825	-0.951	1.01	0.88
CG7366 (GeneID 38918)	DRSC29988	0.0119	1.05	-0.461
Sgs4 (GeneID 31304)	DRSC18715	0.0785	-0.677	-2.68
Sgs4 (GeneID 31304)	DRSC28964	0.844	-0.122	0.426
Ae2 (GeneID 39147)	DRSC08997	-1.18	-1.05	-1.05
Ae2 (GeneID 39147)	DRSC10969	-4.84 (active)	1.24	-8.37
CtsL3 (GeneID 40741)	DRSC12171	-2.51	-0.597	0.0578
CtsL3 (GeneID 40741)	DRSC27036	-6.28	-0.901	-0.461
CG4950 (GeneID 39783)	DRSC10463	0.641	0.76	0.292
CG42361 (GeneID 37936)	DRSC04391	0.461	0.128	0.642
CG3594 (GeneID 37964)	DRSC04393	0.903	-1.45	-0.356
CG3594 (GeneID 37964)	DRSC21959	-0.0113	-0.186	-0.075
